Pooled drug test results. Numbers come from NIAID ChemDB, via PubChem.

All rows: growth or infection tests; organism: Influenza A virus; endpoint: EC50

ECn: concentration that inhibits the pathogen or its effect by n%. An empty or dashed field is not shown. Neighbouring rows are from separate reports.

{"smiles": "CCC(=O)C(CCCCCCc1ccc(O)cc1)C(=O)CC", "strain": "A2 JAP 170", "value": "<100 µg/mL"}
{"smiles": "c1cc(C23CC4CC(CC(C4)C2)C3)[nH]n1", "strain": "H7N1 A/Rostock/34", "cells": "Chick embryo fibroblasts", "value": "21.57 µg/mL"}
{"smiles": "CCCN(CCc1ccc(O)cc1)C(=O)[C@@H]1OC(C(=O)O)=C[C@H](N)[C@H]1NC(C)=O", "strain": "A/Singapore/1/57", "value": "0.0001 µg/mL"}
{"smiles": "N#CNc1nncs1", "strain": "A/ANN ARBOR/1/57", "cells": "MDCK", "value": "0.73 µg/mL"}
{"smiles": "C1CCN(CCN2CCC(C3C4CC5CC(C4)CC3C5)C2)CC1", "strain": "H2N2 A2 JAPAN/305/57", "cells": "MDCK", "value": "0.7 µM"}
{"smiles": "CC(N)C12CC3CC(CC(C3)C1)C2", "strain": "A/Weybridge", "cells": "CEF", "value": "0.2 µM"}
{"smiles": "CCC(CC)[C@H](NC(C)=O)[C@@H]1[C@H](O)[C@@H](C(=O)O)C[C@H]1N=C(N)N", "strain": "H5N1 A/duck/MN/1525/81", "cells": "MDCK", "value": "0.01 µM"}
{"smiles": "CC(=O)N[C@@H]1[C@@H](N)C=C(C(=O)O)O[C@H]1C(=O)N(CCN=[N+]=[N-])CCc1ccccc1", "strain": "A/Singapore/1/57", "value": "0.001 µg/mL"}
{"smiles": "CCCC(CCC)C(NC(C)=O)C1CC(C(=O)O)CC1N=C(N)N", "strain": "H5N1 A/duck/MN/1525/81", "cells": "MDCK", "value": "0.01 µM"}
{"smiles": "CCC(CC)O[C@@H]1C=C(C(=O)O)C[C@H](N)[C@H]1NC(C)=O", "strain": "H3N2 TOKYO/3/67", "cells": "MDCK", "value": "0.034 µM"}
{"smiles": "CCCN(CCc1ccccc1OC)C(=O)[C@@H]1OC(C(=O)O)=C[C@H](N)[C@H]1NC(C)=O", "strain": "A/Singapore/1/57", "value": "0.00004 µg/mL"}
{"smiles": "C/C=C\\[C@@H]1C[C@H](C(=O)O)N[C@H]1[C@@H](NC(C)=O)[C@](C)(CCC)OC", "strain": "A/N9 (WILD TYPE)", "cells": "MDCK", "value": "0.002 µM"}
{"smiles": "CC(N)C12CC3CC(CC(C3)C1)C2", "strain": "H7N1 A/Rostock/34", "cells": "Chick embryo fibroblasts", "value": "0.012 µg/mL"}
{"smiles": "CCCN(CCc1ccc(OC)cc1)C(=O)[C@@H]1OC(C(=O)O)=C[C@H](N)[C@H]1NC(C)=O", "strain": "A/Singapore/1/57", "value": "0.003 µg/mL"}
{"smiles": "Nc1nc2c(ncn2[C@@H]2O[C@H](CO)[C@@H](O)[C@H]2F)c(=O)[nH]1", "strain": "H2N2 A/Singapore/1/57", "cells": "CEF", "value": "0.4 µM"}
{"smiles": "CC[C@@H](O)C1=C[C@@H](n2cnc3c(N)ncnc32)[C@H](O)[C@@H]1O", "strain": "H2N2 X31", "cells": "MDCK", "value": ">250 µg/mL"}
{"smiles": "CCC(=O)C(CCCCCCOc1ccc(OC)cc1Cl)C(=O)CC", "strain": "A2 JAP 170", "value": "<200 µg/mL"}
{"smiles": "C=C[C@@H](O)C1=C[C@@H](n2cnc3c(N)ncnc32)[C@H](O)[C@@H]1O", "strain": "H2N2 X31", "cells": "MDCK", "value": ">50 µg/mL"}
{"smiles": "CCOC(=O)C1=C[C@@H](OC(CC)CC)[C@H](NC(C)=O)[C@@H](N)C1", "strain": "H5N1 A/Vietnam/1194/04", "cells": "MDCK", "value": "22.35 µM"}
{"smiles": "CC(=O)N[C@H]1[C@H]([C@H](O)[C@H](O)CO)OC(C(=O)O)=C[C@@H]1N=C(N)N", "strain": "H11N9 A/DK/MEM/546/74", "cells": "MDCK", "value": "0.0065 µM"}
{"smiles": "[N-]=C=Nc1nncs1", "strain": "H7N1 A/Rostock", "cells": "MDCK", "value": "<10 µg/mL"}

3 of the rows above, restated:

smiles | strain | cells | value
Nc1nc2c(ncn2[C@@H]2O[C@H](CO)[C@@H](O)[C@H]2F)c(=O)[nH]1 | H2N2 A/Singapore/1/57 | CEF | 0.4 µM
CCC(CC)[C@H](NC(C)=O)[C@@H]1[C@H](O)[C@@H](C(=O)O)C[C@H]1N=C(N)N | H5N1 A/duck/MN/1525/81 | MDCK | 0.01 µM
CCCN(CCc1ccc(O)cc1)C(=O)[C@@H]1OC(C(=O)O)=C[C@H](N)[C@H]1NC(C)=O | A/Singapore/1/57 |  | 0.0001 µg/mL